This note sets out measurements from patent US20240368664A1, “LIVE YEAST BIOSENSORS AND METHODS OF USE THEREOF” (priority 2021, published 2024).

One series has as its target T1, CaPep2A13A.
T1 chain: GARLTNFGYFEPA

The next series has as its target T2, CaPep2A.
T2 chain: GARLTNFGYFEPG

B1: Candida albicans Bar1 aspartyl protease (CaBar1) (protein)
chain: MLFTILSLLVPSLAVAVSNTGGAVKLDLTISDEHMYYIENLALGTPPQFISNVIVDSGSSDLMIVDSIYNFSASSSFYNSNQTAIMKYGYGGQFPVYFINETIRSNDWKLSNLSMGLANISDMDSFSGILGIGFTRQELFKTNYSNFPYLLKDQGYTKSVLFSFNGQDQNPSIIFGGIITNIIDGPLVRAPFIKVISFINQLDYWLMPTFTVNQIKLGDTIVSNQKTLYQIDSGTNGFVPPTPVLNNILKILGDDYIQDDNGNIYFDIKYIEGLNITFSVQGYDIGFQLVDIVGDTIERNSTTFVALNVASCDIGYNAYEGLLPNLIFKYHYAIFDYDNAQIYFGKYKNSNGEANVVAVENGYQLPVPTVDVPDVEDTYSVIYIAESETTVTVAPTEVQSTYSSFSISEGTSSNLTSGSTSDDKITSVTSNPQYC
As for B1, the peptide cleavage entry with CaPep2A13A is reported as “retained that property in the CaPep2A13A variant of the cleavable CaPep13A”; with CaPep2A, “a CaPep mutation in position 2 rendered the peptide non-cleavable”.
